The values below come from patent EP3995502A1, “4-HYDROXYPHENYL PHOSPHONIUM SALTS WITH ANTI-PARASITIC PROPERTIES” (priority 2019, dated 2021).

In this assay the test system is T. brucei B48. Nature of the assay: In vitro trypanocidal activity, drug-resistant strain B48. It is filed as cell-based, T. b. brucei. As to conditions: resistance factor (EC50 T. b. B48 / EC50 T. b. s427).

In turn, `O=C(CCCCCCCCCCCCCCC[P+](c1ccccc1)(c1ccccc1)c1ccccc1)c1ccc(O)cc1O` registered an RF of 1.27 µM.
